Results from PMC8957246, “Synthesis and diverse biological activity profile of triethylammonium isatin-3-hydrazones” (ADMET & DMPK, 2022).

Tested on: Phytophthora cactorum VKM F-985
Assay: Fungicidal activity, radial growth inhibition, P. cactorum
Type: cell-based
Conditions: by seven days of the fungus growth
From the text: Plant pathogenic bacterial strains Micrococcus luteus B-109, Pectobacterium atrosepticum 1043, Pectobacterium carotovorum subsp. carotovorum MI, Pseudomonas fluorescens EL-2.1, and Xanthomonas campestris B-610 and fungal strain Fusarium oxysporum IBPPM 543 were obtained from the specialized scientific culture collection of IBPPM RAS (WFCC no. 975, WDCM no. 1021) (CM IBPPM). Pathogenic fungus Phytophthora cactorum VKM F-985 provided by the All-Russian Collection of Microorganisms (VKM) and deposited at A.E. Favorsky Irkutsk Institute of Chemistry, SB RAS, was also used as test organism. […]
For the fungicidal activity analysis, radial growth (colony diameters) of the fungi on a solid medium in the absence and in the presence of the compounds 3a,c-g solutions at various concentrations were compared. The method consisted of the following: sterile, melted and then cooled to about 60°C GPY agar medium (20.0 ml) was mixed with the precisely measured volumes of the solutions under question, and poured into a sterile Petri dish (90 mm i.d.). […] The fungicidal effect was scored by the size of mycelium colony on a Petri dish compared to the control without fungicidal admixtures to GPY agar. […]

| Compound | antagonistic effect superior to fludioxonil |
| --- | --- |
| CC[N+](CC)(CC)CC(=O)N/N=C1\C(=O)N(Cc2cc(C(C)(C)C)c(O)c(C(C)(C)C)c2)c2c1ccc(C)c2C [Compound 3d, 2-(2-(1-(3,5-Di-tert-butyl-4-hydroxybenzyl)-6,7-dimethyl-2-oxoindolin-3-ylidene)hydrazinyl)-N,N,N-triethyl-2-oxoethanammonium bromide] | 2.5 times |
| CCc1cccc2c1N(Cc1cc(C(C)(C)C)c(O)c(C(C)(C)C)c1)C(=O)/C2=N\NC(=O)C[N+](CC)(CC)CC [Compound 3c, 2-(2-(1-(3,5-Di-tert-butyl-4-hydroxybenzyl)-7-ethyl-2-oxoindolin-3-ylidene)hydrazinyl)-N,N,N-triethyl-2-oxoethanammonium bromide] | 13.2 times |
